## Library screen at single concentrations

From ChEMBL document CHEMBL3988442, “University of Dundee, Small-Polar-MMV Screening Library” (2021).

Mtb glucose medium: 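Phenotypic screen: M. tuberculosis growth, glucose 7H9 medium, 3 days; the read-out is not stated. Tested at 500 µM. Higher reads as more growth inhibition (inferred: compounds with an IC50 in retests scored well above the rest). About 18,000 compounds were tested under these conditions; 7.9% (about 1,400) showed 50% or more at least once.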
Mtb cholesterol medium: 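Whole-cell growth test on Mycobacterium tuberculosis, read after 4 days in a medium based on cholesterol and the lipid DPPC; the read-out is not stated. Tested at 500 µM. Direction is inferred from retests: higher values go with more growth inhibition. About 18,000 compounds were tested under these conditions; 5% (about 900) showed 50% or more at least once.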

Each number is a percent effect as filed. The controls that fix the scale are not given in the record; negative values are as filed. This is part of a subset picked to be rich in strong results. A dash means the value is not listed here; it may have been measured.

| # | SMILES | Mtb glucose medium | Mtb cholesterol medium |
|---|---|---|---|
| 1 | `CC(C)c1nnc(CNC(=O)C2=COCCC2)n1C` | - | -3.682 |
| 2 | `O=C(CCN1CCCCCC1=O)NCc1ncc[nH]1` | 12.21 | - |
| 3 | `CC(=O)c1c[nH]c(C(=O)NC2(C)CCS(=O)(=O)C2)c1` (centres unmarked) | -2.825 | - |
| 4 | `CC(N)C(=O)Nc1ccc(-n2cncn2)cc1` (centres unmarked) | 22.22 | - |
| 5 | `CN(Cc1ccncc1)S(=O)(=O)c1cccs1` | 53.77 | 33.87 |
| 6 | `NCCc1nsc2ccccc12` | 80.48 | 69.27 |
| 7 | `CCN1CCN(C(=O)c2ccc(C)c(C)c2)CC1` | - | 50.36 |
| 8 | `CN(CC1CCOCC1)C(=O)CSc1nnc(N)s1` | 9.764 | -0.8327 |
| 9 | `COCCNCC(=O)Nc1cccc(S(N)(=O)=O)c1` | 2.489 | - |
| 10 | `CSc1ccc(NC(=O)NCCCNC(C)=O)cc1` | 14.52 | -0.9324 |
| 11 | `COC(=O)c1ccc(NCC(=O)NC(N)=O)cc1` | 83.3 | 91.23 |
| 12 | `O=C(CCC1CCNCC1)Nc1nc2c(s1)COCC2` | 8.31 | - |
| 13 | `CNS(=O)(=O)CCNC(=O)C(C)c1ccccc1` (centres unmarked) | - | 6.124 |
| 14 | `OCC1CN(c2ncc(Cl)cc2F)CCO1` (centres unmarked) | 62.39 | 68.72 |
| 15 | `CCN1CC(C(=O)NCCC2=CCCCC2)CC1=O` (centres unmarked) | 16 | - |
| 16 | `CN1CCN(C(=O)C2CCC2)c2ccccc2C1` | -2.667 | - |
| 17 | `COc1cccc(CNc2ccccn2)c1O` | 53.37 | 37.25 |
| 18 | `Nc1nnc(SCC(=O)NCCOc2ccccc2)s1` | 8.457 | -6.734 |
| 19 | `Cc1nc(C(=O)NCCN2CCCC2)c(C)s1` | 64.05 | - |
| 20 | `NCCOc1cccc(C(F)(F)F)n1` | 34.89 | - |
| 21 | `C[C@H](CO)N(C)C(=O)Cc1cccc(OC(F)(F)F)c1` | 6.64 | - |
| 22 | `NCCN1CCN(c2ncccn2)CC1` | 12.85 | - |
| 23 | `CC(C)c1ccc(NC(=O)CN)cc1` | 54.67 | 60.16 |
| 24 | `Nc1ncccc1CNC(=O)[C@H]1CCC[C@@H](O)C1` | 13.75 | - |
| 25 | `CC(=O)Nc1ccc(CNc2nnc(C(C)C)o2)cc1` | - | 19.82 |
| 26 | `Cc1cc(C(=O)N2C[C@H]3CC[C@@H](C2)[C@H]3O)c(C)o1` | 9.777 | - |
| 27 | `COc1ncc(C(=O)N[C@@H]2COCC[C@H]2O)nc1OC` | - | -9.082 |
| 28 | `NC(=O)c1cccc2[nH]ccc12` | -7.052 | - |
| 29 | `COCCSCc1cnn(-c2ccccc2)n1` | 43.15 | - |
| 30 | `CCN1CCN(C(=O)c2cccnc2SC(C)C)CC1` | 16.22 | - |
| 31 | `COC(=O)COc1ccc(C(C)=O)cc1Cl` | - | 58.51 |
| 32 | `c1coc(C2CNCCO2)c1` (centres unmarked) | 3.146 | - |
| 33 | `NCCNC(=O)c1ccc(C(F)(F)F)cc1` | 37.98 | - |
| 34 | `CN1C(=O)C[C@@H](N)[C@@H]1c1ccnn1C` | 5.464 | - |
| 35 | `CC(CN)C(=O)Nc1cn[nH]c1` (centres unmarked) | -1.24 | - |
| 36 | `Cc1cc(NC(=O)NC2CCN(C3CC3)C2)no1` (centres unmarked) | 14.2 | - |
| 37 | `NC(=O)CN1CCCN(c2nc3ccccc3o2)CC1` | 8.197 | - |
| 38 | `NCCS(=O)(=O)N1CCCc2ccccc21` | 27.64 | 18.38 |
| 39 | `COc1cccc(CNc2ccccc2CO)n1` | 53.71 | - |
| 40 | `CN(C)S(=O)(=O)NC(c1ccccc1)c1ccccc1` | 71.03 | 56.21 |
| 41 | `O=C(CCN1CCCC1c1ccsc1)N1CCOCC1` (centres unmarked) | 30.75 | - |
| 42 | `CCn1cc(NC(=O)C2(NC(C)=O)CCCCC2)cn1` | - | -5.894 |
| 43 | `CCN(C(=O)CSc1ncccn1)C1CCS(=O)(=O)C1` (centres unmarked) | - | 8.145 |
| 44 | `COc1ccc(C(=O)NCCN2CCCC2)cc1` | - | 9.964 |
| 45 | `O=C(CNc1ccc(Br)cc1)NCc1ncc[nH]1` | 60.07 | 29.74 |
| 46 | `CC(C)(C)c1ccc(N)nc1` | - | -3.732 |
| 47 | `CC(C)(C)C(=O)N1CCN2C(=O)NCC2C1` (centres unmarked) | 4.709 | - |
| 48 | `CCCNC(=O)c1[nH]cnc1C(=O)NC(C)C` | - | 12.14 |
| 49 | `COC(=O)c1ccc(C(=O)N(C)C2(C#N)CCC2)cc1` | 3.446 | - |

6 of the entries, repeated:

- CC(C)(C)C(=O)N1CCN2C(=O)NCC2C1 (centres unmarked) : Mtb glucose medium: 4.709%
- COCCSCc1cnn(-c2ccccc2)n1 : Mtb glucose medium: 43.15%
- CN1CCN(C(=O)C2CCC2)c2ccccc2C1 : Mtb glucose medium: -2.667%
- OCC1CN(c2ncc(Cl)cc2F)CCO1 (centres unmarked) : Mtb glucose medium: 62.39%; Mtb cholesterol medium: 68.72%
- O=C(CNc1ccc(Br)cc1)NCc1ncc[nH]1 : Mtb glucose medium: 60.07%; Mtb cholesterol medium: 29.74%
- CC(C)c1ccc(NC(=O)CN)cc1 : Mtb glucose medium: 54.67%; Mtb cholesterol medium: 60.16%